Pooled drug test results. Numbers come from NIAID ChemDB, via PubChem.

All rows: growth or infection tests; agent: Candida albicans; read-out: MIC

Lines come from different laboratories, so protocols vary.

structure,strain,value
C[C@H]1[C@@H](OCCCCO)O[C@@H]2O[C@]3(C)CC[C@H]4[C@H](C)CC[C@@H]1C24OO3,ATCC 90028,>50 µg/mL
OCCSCc1ccccc1,-,>512 µg/mL
Cc1c(N2CCC[C@@H](O)C2)c(F)cn2c(=O)c(C(=O)O)cc(C3CC3)c12,CCH442,>100 µg/mL
S=C([S][Sn]([S]C(=S)N1CCCC1)([c]1ccccc1)[c]1ccccc1)N1CCCC1,ATCC 18804,50 µg/mL
COc1ccc2nc(Oc3ccccc3)c(C3C(C#N)=C(N)Oc4c3c(=O)oc3ccccc43)cc2c1,MTCC 227,500 µg/mL
CN(C/C=C/c1ccccc1)Cc1cccc2ccccc12,-,>200 µM
COc1ccc2nc(Oc3ccc(Cl)cc3)c(C3C(C#N)=C(N)Oc4c3c(=O)oc3ccccc43)cc2c1,MTCC 227,1000 µg/mL
C[C@@H]1C[C@@H]([C@H](O)CC2CC(=O)NC(=O)C2)C(=O)[C@@H](C)C1,Isolate 2,0.54 µM
Cc1c(N2CC(CO)C2)c(F)cn2c(=O)c(C(=O)O)cc(C3CC3)c12,CCH442,>100 µg/mL
Cn1c([N+](=O)[O-])cnc1S(C)(=O)=O,18 isolates,60 µg/mL
Cc1c(N2C[C@@H](N)[C@@H](F)C2)c(F)cn2c(=O)c(C(=O)O)cc(C3CC3)c12,CCH442,>100 µg/mL
Cc1c(N2CCC(N3CCCCC3)CC2)c(F)cn2c(=O)c(C(=O)O)cc(C3CC3)c12,CCH442,>100 µg/mL
CCO[C@@H]1O[C@@H]2O[C@]3(C)CC[C@H]4[C@H](C)CC[C@@H]([C@H]1C)C24OO3,ATCC 90028,>50 µg/mL
CCN(CC)C(=S)[S][Sn]([CH]1CCCCC1)([CH]1CCCCC1)[CH]1CCCCC1,Drug-resistant isolate,75 µg/mL
CNC1C(C)OC(O[C@H]2c3cc(C)c(C(=O)NC(C)C(=O)O)c(O)c3-c3c(cc4c(c3O)C(=O)c3cc(OC)cc(O)c3C4=O)[C@@H]2O)C(O)C1OC1OCC(O)C(O)C1OC1OCC(O)C(O)C1O,A9540,25 µg/mL
Cc1ccc2nc(Oc3ccc(Cl)cc3)c(C3C(C#N)=C(N)Oc4c3c(=O)oc3ccc(C)cc43)cc2c1,MTCC 227,250 µg/mL
COc1cc(O)c2c(c1)C(=O)c1c(cc3c(c1O)-c1c(cc(C)c(C(=O)NC(C)C(=O)O)c1O)[C@H](OC1OC(C)C(F)C(OC4OCC(O)C(O)C4O)C1O)[C@H]3O)C2=O,A9540,12.5 µg/mL
C[C@H]1[C@@H](Oc2ccc(O)cc2)O[C@@H]2O[C@]3(C)CC[C@H]4[C@H](C)CC[C@@H]1C24OO3,ATCC 90028,>50 µg/mL
CN[C@@H]1[C@H](O)[C@@H](O)[C@H](O[C@H]2c3cc(C)c(C(=O)N[C@H](C)C(=O)O)c(O)c3-c3c(cc4c(c3O)C(=O)c3cc(OC)cc(O)c3C4=O)[C@@H]2O)O[C@@H]1C,A9540,3.1 µg/mL
Cc1c(N2CCC(F)C2)c(F)cn2c(=O)c(C(=O)O)cc(C3CC3)c12,CCH442,>100 µg/mL
N[C@@H](CS(=O)Cc1ccccc1)C(=O)O,-,256 µg/mL
CC(=O)OC1C=COC=C2CC34SSC5(CC6=COC=CC(OC(C)=O)C6N5C3=O)C(=O)N4C21,E83,10 µg/mL
Cc1c(N2CCc3c(N)cccc3C2)c(F)cn2c(=O)c(C(=O)O)cc(C3CC3)c12.Cl,CCH442,>100 µg/mL
OC(Cn1cncn1)(Cn1cncn1)c1ccc(F)cc1F,ATCC 90028,0.25 µg/mL
CC(=O)N1CCN(c2ccc(OC[C@H]3CO[C@](Cn4ccnc4)(c4ccc(Cl)cc4Cl)O3)cc2)CC1,Isogenic isolate 17 CDR,0.25 µg/mL
O=C1/C(=C\c2ccccc2)CN(C(=O)c2ccc(/C=C/C(=O)c3ccc(Cl)c(Cl)c3)cc2)C/C1=C/c1ccccc1,1 clinical isolate,>32 µg/mL
Cc1c(N2C[C@@H](C)N[C@@H](C)C2)c(F)cn2c(=O)c(C(=O)O)cc(C3CC3)c12.Cl,CCH442,>100 µg/mL
O=C1/C(=C\c2ccccc2)CN(C(=O)c2ccc(/C=C/C(=O)c3ccccc3)cc2)C/C1=C/c1ccccc1,1 clinical isolate,>32 µg/mL
CC1=COC2OC3(C)CCC4[C@H](C)CCC1[C@@]24O3,ATCC 90028,>50 µg/mL
CC(=O)N1CCN(c2ccc(OC[C@H]3CO[C@](Cn4ccnc4)(c4ccc(Cl)cc4Cl)O3)cc2)CC1,Clinical isolates,32 µg/mL
NC(=O)OC[C@H](O)[C@@H](O)[C@H](N)C(=O)N[C@H](C(=O)O)[C@H]1O[C@@H](n2cc(C(=O)O)c(=O)[nH]c2=O)[C@H](O)[C@@H]1O,ATCC 10231,>100 µg/mL
Cc1c(N)nc([C@H](CC(N)=O)NC[C@H](N)C(N)=O)nc1C(=O)N[C@H](C(=O)N[C@H](C)[C@@H](O)[C@H](C)C(=O)N[C@H](C(=O)NCCc1nc(-c2nc(C(=O)NCCC[S+](C)C)cs2)cs1)[C@@H](C)O)C(O[C@@H]1O[C@@H](CO)[C@@H](O)[C@H](O)[C@@H]1O[C@H]1O[C@H](CO)[C@@H](O)[C@H](OC(N)=O)[C@@H]1O)c1cnc[nH]1,Isolate 94-77,<0.19 µg/mL
c1ccc(C[n+]2c3ccccc3cc3[nH]c4ccccc4c32)cc1,B311,>250 µg/mL
Cc1c(N2CC3(CC(N)C3)C2)c(F)cn2c(=O)c(C(=O)O)cc(C3CC3)c12,CCH442,>100 µg/mL
c1ccc2c(c1)cc1[nH]c3ccccc3c1[n+]2CC1CCCC1,B311,250 µg/mL
O=C1/C(=C/c2ccccc2)CN(C(=O)c2ccc(/C=C/C(=O)c3ccc([N+](=O)[O-])cc3)cc2)C/C1=C\c1ccccc1,1 clinical isolate,>32 µg/mL
CC(C)=CCC/C(C)=C/CC/C(C)=C/CC[C@@]1(C)[C@H](CCCO)/C(=C(/C)C=O)CC[C@]1(C)O,SR78,>50 µg/mL
Cc1c(N2CCC(n3ccnn3)C2)c(F)cn2c(=O)c(C(=O)O)cc(C3CC3)c12,CCH442,0.39 µg/mL
Cl.NC1CCN(c2c(F)cn3c(=O)c(C(=O)O)cc(C4CC4)c3c2F)C1,CCH442,>100 µg/mL
OCCSSCCO,-,>512 µg/mL
c1ccc(CCCCCCCC[n+]2c3ccccc3cc3[nH]c4ccccc4c32)cc1,B311,10 µg/mL
COc1ccc2nc(Oc3ccc(Cl)cc3)c(C3C(C#N)=C(N)Oc4c3c(=O)oc3ccc(C)cc43)cc2c1,MTCC 227,500 µg/mL
c1ccc2c(c1)cc1[nH]c3ccccc3c1[n+]2CC1CCCCC1,B311,62.5 µg/mL
Cc1ccc(Oc2nc3ccc(C)cc3cc2C2C(C#N)=C(N)Oc3c2c(=O)oc2ccccc32)cc1,MTCC 227,500 µg/mL
CCOC(=O)c1cn(CC)c2cc(C)ccc2c1=O,ATCC 10231,>100 µg/mL
CCN(CC)C(=S)[S][Sn]([S]C(=S)N(CC)CC)([c]1ccccc1)[c]1ccccc1,ATCC 18804,40 µg/mL
O=C(C[n+]1c2ccccc2cc2[nH]c3ccccc3c21)c1ccccc1,B311,31.2 µg/mL
CC(=O)N[C@H]1CCN(c2c(F)cn3c(=O)c(C(=O)O)cc(C4CC4)c3c2C)C1,CCH442,>100 µg/mL
COc1ccc(/C=C/C(=O)N2C/C(=C\c3ccccc3)C(=O)/C(=C/c3ccccc3)C2)cc1OC,1 clinical isolate,>32 µg/mL
CCOC(=O)c1cn(CC)c2ccc(Cl)cc2c1=O,ATCC 10231,>40 µg/mL
c1ccc(CCC[n+]2c3ccccc3cc3[nH]c4ccccc4c32)cc1,B311,31.2 µg/mL
COc1cc(O)c2c(c1)C(=O)c1c(cc3c(c1O)-c1c(cc(C)c(C(=O)NC(C)C(=O)O)c1O)[C@H](OC1OC(C)CC(=O)C1O)[C@H]3O)C2=O,A9540,3.1 µg/mL
O=C(O)c1ccc(/C=C/C(=O)c2ccccc2)cc1,1 clinical isolate,>32 µg/mL
C(=C\c1ccccc1)/CN(Cc1cccc2ccccc12)n1ccnc1,-,>200 µM
S=C([S][Sn]([CH]1CCCCC1)([CH]1CCCCC1)[CH]1CCCCC1)N1CCCC1,ATCC 18804,>250 µg/mL
C[C@@H]1[C@H](O)[C@@H](C)/C=C/C=C/CC/C=C/C=C/C=C/C=C/C(O[C@H]2O[C@H](C)[C@@H](O)[C@H](N)[C@@H]2O)CC2O[C@](O)(CC(O)C(O)CCC(O)CC(O)CC(O)CC(=O)O[C@H]1C)CC(O)C2C(=O)O,ATCC 10231,5 µg/mL
N=C(N)c1ccc2c(c1)[nH]c1cc(C(=N)N)ccc12,A39,0.78 µg/mL
C=CC[C@@H]1/C=C(/C)C[C@H](C)C[C@H](OC)[C@H]2O[C@@](O)(C(=O)C(=O)N3CCCC[C@H]3C(=O)O[C@H](/C(C)=C/[C@@H]3CC[C@@H](O)[C@H](OC)C3)[C@H](C)[C@@H](O)CC1=O)[C@H](C)C[C@@H]2OC,YAG237 (genotype CNB1-1/CNB1),>3.12 µg/mL
CN(C/C=C/C#CC(C)(C)C)Cc1cccc2ccccc12,ATCC 24433,1 µg/mL
Cc1c(N2CCNC(C)C2)c(F)cn2c(=O)c(C(=O)O)cc(C3CC3)c12.Cl,CCH442,>100 µg/mL
Nc1[nH]c(=O)ncc1F,ATCC 90029,32 µg/mL
CCN(CC)C(=S)[S][Sn]([S]C(=S)N(CC)CC)([S]C(=S)N(CC)CC)[c]1ccccc1,ATCC 18804,>250 µg/mL
CCC(C)n1ncn(-c2ccc(N3CCN(c4ccc(OC[C@H]5CO[C@](Cn6cncn6)(c6ccc(Cl)cc6Cl)O5)cc4)CC3)cc2)c1=O,KCTC 1940,>100 µg/mL
COc1ccc(/C=C/C(=O)N2C/C(=C\c3ccccc3)C(=O)/C(=C/c3ccccc3)C2)cc1,1 clinical isolate,>32 µg/mL
Cc1c(N2CCC(N(C)C)CC2)c(F)cn2c(=O)c(C(=O)O)cc(C3CC3)c12,CCH442,>100 µg/mL
Cc1c(N2CCC[C@@H](N)C2)c(F)cn2c(=O)c(C(=O)O)cc(C3CC3)c12,CCH442,>100 µg/mL
COc1ccc(C(=O)/C=C/c2ccc(C(=O)N3C/C(=C\c4ccccc4)C(=O)/C(=C/c4ccccc4)C3)cc2)cc1,1 clinical isolate,>32 µg/mL
Cc1ccc2oc(=O)c3c(c2c1)OC(N)=C(C#N)C3c1cc2ccccc2nc1Oc1ccccc1,MTCC 227,>1000 µg/mL
OCCSSSCc1ccccc1,-,128 µg/mL
CC(C)c1cc2c(cc1O)[C@@]1(C)CCCC(C)(C)C1C[C@@H]2C,-,>250 µg/mL

Again, the opening 4 rows:

structure	strain	value
C[C@H]1[C@@H](OCCCCO)O[C@@H]2O[C@]3(C)CC[C@H]4[C@H](C)CC[C@@H]1C24OO3	ATCC 90028	>50 µg/mL
OCCSCc1ccccc1	-	>512 µg/mL
Cc1c(N2CCC[C@@H](O)C2)c(F)cn2c(=O)c(C(=O)O)cc(C3CC3)c12	CCH442	>100 µg/mL
S=C([S][Sn]([S]C(=S)N1CCCC1)([c]1ccccc1)[c]1ccccc1)N1CCCC1	ATCC 18804	50 µg/mL

An empty or dashed field is not shown.